Measurements published in PubChem BioAssay AID651724 (National Center for Advancing Translational Sciences (NCATS), 2012).
Only a part is listed here, and it is no random draw. Active and inactive are the calls of the source. No stated cut-off is given here; in the data, active means activity change below about -65%; inconclusive means mostly about -30% to -63%; inactive means weaker than that.
On the % scale 0 is the no-effect control and ±100 the full control effect.

What follows are compounds tested on CtBP / adenovirus E1A interaction (AlphaScreen) (assay: qHTS Assay for Inhibitors of the CtBP/E1A Interaction). Settings: AlphaScreen GST-E1A/His-CtBP binding, 1536-well; active compounds read low.
Procedure, shortened: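 Steps: dispense buffer (Tris pH 8.0, NaCl 300 mM, TCEP 1 mM, BSA, Tween 20); add 5X protein mix (GST-E1A, His-CtBP, 125 nM each); pin 23 nL compound; 2 h at 37 °C, dark; add 5X beads (50 ug/mL); 1 h; read.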
In the case of `CC1CCC(C(C)C)C(OP(=O)(Nc2ccccn2)c2ccccc2)C1` (stereo not drawn), the activity change was inactive: -2.18%.
With `Cc1nn(-c2ccccc2)c2c1P(=O)(N1CCOCC1)N(C)C(c1ccccc1)=N2` (stereo not drawn) the activity change was inactive: 3.3%.
`CN(C(=O)Cc1ccc(Cl)c(Cl)c1)[C@H]1CC[C@@]2(CCCO2)C[C@@H]1N1CCCC1` was tested, and the activity change was inactive: 1.87%.
For `CC1=NCCc2c1[nH]c1ccccc21.O=[N+]([O-])c1cc([N+](=O)[O-])c(O)c([N+](=O)[O-])c1`, the activity change was inactive: -21.9%.
In the case of `CN(C)C(=O)c1cc([N+](=O)[O-])cc2c1-c1c(cc([N+](=O)[O-])cc1[N+](=O)[O-])C2=O`, the activity change was inactive: -2.21%.
For `O=[N+]([O-])c1ccc2c(c1)nnn2O`, the activity change was inactive: -2.3%.
`CN(C(=O)Cc1ccccc1)[C@@H]1CC[C@]2(CCCO2)C[C@H]1N1CCCC1` was tested, and the activity change was inactive: 4.63%.
In the case of `CCOP1(=S)c2c(C)nn(CCC#N)c2N=C(c2ccc(F)cc2)N1C` (stereo not drawn), the activity change was inactive: -8.02%.
In the case of `N#CCCN(C(=O)COC(=O)C(O)(c1ccccc1)c1ccccc1)c1ccc(F)cc1`, the activity change was inactive: -4.31%.
In the case of `NC(=O)Nc1ccc([As](=O)(O)O)cc1`, the activity change was inactive: 7.83%.
For `Nc1ccccc1[As](=O)(O)c1ccccc1`, the activity change was inactive: 13.2%.
In the case of `O=C(O)COc1ccc([As](=O)(O)O)cc1[N+](=O)[O-]`, the activity change was inactive: 0%.
With `CS(=O)(=O)c1cc([N+](=O)[O-])c2no[n+]([O-])c2c1` the activity change was inactive: 0.245%.
`O=P(Nc1nccs1)(c1ccccc1)c1nc2ccccc2s1` (stereo not drawn) was tested, and the activity change was inactive: 2%.
For `CCOP1(=S)c2c(C)nn(CCC#N)c2N=C(c2ccccc2F)N1C` (stereo not drawn), the activity change was inactive: -9.38%.
For `CCOP(=O)(Nc1cccc2ccccc12)OCC`, the activity change was inactive: 1.27%.
With `Cc1ccc(C)c(NP(C)(=O)Oc2ccccc2)c1` (stereo not drawn) the activity change was inactive: 0.182%.
In the case of `CP(=O)(Nc1cccc(Br)c1)Oc1ccccc1` (stereo not drawn), the activity change was inactive: 9.98%.
For `Cc1cc(C)cc(OP(C)(=O)Nc2ccccn2)c1` (stereo not drawn), the activity change was inactive: 9.86%.
In the case of `CCOC(=O)c1ccc(NP(C)(=O)Oc2cc(C)cc(C)c2)cc1` (stereo not drawn), the activity change was inactive: -12%.
`Cc1cc(C)cc(OP(C)(=O)Nc2ccc(C)cc2C)c1` (stereo not drawn) was tested, and the activity change was inactive: -13.5%.
`O=[As](O)(c1cccc(O)c1)c1cccc(O)c1` was tested, and the activity change was inactive: 7.82%.
`Cc1cccc(OCC(=O)OC2CN3CCC2CC3)c1` (stereo not drawn) was tested, and the activity change was inactive: 5.54%.
With `COc1ccccc1OP(C)(=O)Nc1cccc(Br)c1` (stereo not drawn) the activity change was inactive: 10.5%.
In the case of `CS(=O)(=O)c1ccc(Cl)c(NC(=O)COC(=O)C(O)(c2ccccc2)c2ccccc2)c1`, the activity change was inactive: -1.65%.
For `O=[As](O)(O)c1cccnc1`, the activity change was inactive: 3.2%.
With `O=C(OC1CN2CCC1CC2)c1ccc(Cl)cc1` (stereo not drawn) the activity change was inactive: -8.32%.
In the case of `COc1ccccc1-c1ccccn1.O=[N+]([O-])c1cc([N+](=O)[O-])c(O)c([N+](=O)[O-])c1`, the activity change was inactive: 4.22%.
`COc1ccc(N/C(=N/P(=O)(N2CCOCC2)N2CCOCC2)N2CCOCC2)cc1` was tested, and the activity change was inactive: 10.1%.
In the case of `O=[N+]([O-])c1cc(Oc2ccc([N+](=O)[O-])cc2C(F)(F)F)cc([N+](=O)[O-])c1`, the activity change was inactive: 6.71%.
With `COc1cc(I)ccc1[As](=O)(O)O` the activity change was inactive: -1.82%.
With `COc1ccc2nc(NP(=O)(c3ccccc3)c3ccccc3)sc2c1` the activity change was inactive: -6.12%.
With `O=P1(N(CCCl)CCCl)Nc2ccccc2N1` the activity change was inactive: -8.3%.
In the case of `O=P1(N(CCCl)CCCl)OCCCN1CCCl` (stereo not drawn), the activity change was inactive: 12.5%.
In the case of `Cc1cc(=O)[nH]c(N[N+](=O)[O-])n1`, the activity change was inactive: 0.22%.
In the case of `CCN(CC)CCCOC(=O)C(O)(c1ccccc1)c1ccccc1`, the activity change was inactive: -7.38%.
In the case of `O=C(OC1CN2CCC1CC2)C12CC3CC(CC(C3)C1)C2` (stereo not drawn), the activity change was inactive: -9.63%.
For `Cc1cc(C)cc(OP(C)(N)=O)c1` (stereo not drawn), the activity change was inactive: -8.12%.
In the case of `O=[N+]([O-])c1cc([N+](=O)[O-])c(-c2ccn[nH]2)s1`, the activity change was inactive: -26.4%.
In the case of `COc1ccc(OP(C)(=O)Nc2cccc(F)c2)cc1` (stereo not drawn), the activity change was inactive: -2.05%.
With `CCN(CC)C(=S)SC(NC=O)C(Cl)(Cl)Cl` (stereo not drawn) the activity change was inactive: 6.43%.
In the case of `O=C(OC1CN2CCC1CC2)c1cccc2[nH]cnc12` (stereo not drawn), the activity change was inactive: 2.35%.
`COc1ccccc1OP(C)(=O)Nc1cc(Cl)ccc1C` (stereo not drawn) was tested, and the activity change was inactive: 0%.
With `CC(C)NC(=O)NP(=O)(Oc1ccccc1)Oc1ccccc1` the activity change was inactive: -22.1%.
For `COC(=O)C1(C)COP(=O)(N2CCCCCC2)OC1` (stereo not drawn), the activity change was inactive: 16.1%.
For `COc1ccccc1OP(C)(=O)Nc1ccc(C)cc1` (stereo not drawn), the activity change was inactive: -2.72%.
In the case of `ClCCSc1nnc(-c2cccnc2)o1`, the activity change was inactive: 7.16%.
With `CCOC(=O)c1ccc(NP(C)(=O)Oc2ccccc2)cc1` (stereo not drawn) the activity change was inactive: 5.47%.
With `Cc1ccc2nc3c(c(C)c2c1)CC(C(Cl)Cl)S3` (stereo not drawn) the activity change was inactive: 14.5%.
For `O=[N+]([O-])c1ccc2c(c1)C=Nc1ccccc1O2`, the activity change was inactive: -23.4%.
In the case of `Cc1cccc(C)c1OP(C)(N)=O` (stereo not drawn), the activity change was inactive: -5.26%.
`CC(C)(C)c1ccc(OP(C)(=O)Nc2ccc(SC(F)(F)F)cc2)cc1` (stereo not drawn) was tested, and the activity change was inactive: 2.74%.
In the case of `[N-]=[N+]=NC1CCCCC1NC(=O)c1cc([N+](=O)[O-])cc([N+](=O)[O-])c1` (stereo not drawn), the activity change was inactive: 1.1%.
For `COc1cc(C(=O)NCC2(N3CCOCC3)CCCCC2)ccc1OCC(C)C`, the activity change was inactive: -10.8%.
For `O=[N+]([O-])c1ccc(-c2cc([N+](=O)[O-])c(O)c([N+](=O)[O-])c2)cc1`, the activity change was inactive: -0.127%.
With `O=[As](O)(c1ccc(O)cc1)c1ccccc1O` the activity change was inactive: 13.7%.
For `O=[N+]([O-])c1cc([N+](=O)[O-])c(Nc2cccnc2)c([N+](=O)[O-])c1`, the activity change was inactive: -27.9%.
In the case of `CP(=O)(Nc1ccccc1Br)Oc1ccccc1` (stereo not drawn), the activity change was inactive: -6.12%.
For `COc1ccccc1OP(C)(=O)Nc1ccccc1` (stereo not drawn), the activity change was inactive: 15.3%.
`O=P(Nc1ccccn1)(c1cccc2ccccc12)c1cccc2ccccc12` was tested, and the activity change was inactive: -5.52%.
`Cc1cc(SC(NC=O)C(Cl)(Cl)Cl)ncn1` (stereo not drawn) was tested, and the activity change was inactive: -2.12%.
In the case of `CCOC(=O)Nc1cccc([As](=O)(O)O)c1`, the activity change was inactive: -18.1%.
`CP(=S)(Nn1cnnc1)Oc1ccccc1` (stereo not drawn) was tested, and the activity change was inactive: -0.586%.
